Data on five molecules can be found in PMC7954794, “Protein context shapes the specificity of SH3 domain-mediated interactions in vivo” (Nature Communications, 2021).

Holding throughout (assay type): cell-based, Saccharomyces cerevisiae
Holding throughout (set-up): key: 0: SH3-independent; 1: SH3-dependent PPIs; 2: SH3-inhibited PPIs

One data set has as its system ABP1. The data set is described as follows: DHFR-PCA on solid medium, bait ABP1 (Fig. 1B). The following applies: bait ABP1, label = prey. The text has this:
(§1) Supplement 41467_2021_21873_MOESM8_ESM.xlsx, sheet "Fig1B" | column: medsize; medrep; Ratio; Score

A further data set concerns BEM1-2. The data set is described as follows: DHFR-PCA on solid medium, bait BEM1-2 (Fig. 1B). The following applies: bait BEM1-2, label = prey.
Text: as §1

The subject of another data set is BEM1-1. Kind of data set: DHFR-PCA on solid medium, bait BEM1-1 (Fig. 1B). The settings on record: bait BEM1-1, label = prey.
Text: as §1

No dose or concentration is given here for some results.

B1: YGR229C (protein, UniProt P32566 1-505, looked up)
Cell wall assembly regulator …: MDLFKRKVKEWVYSLSTDDHYAEYNPDETPTFNMGKRLNSNNGQVNPSQMHLNSVDEEMSMGFQNGVPSNEDINIDEFTSTESNDGVSETLLAWRHIDFWTSEHNPDLNATLSDPCTQNDITHAEEDLEVSFPNPVKASFKIHDGQEDLESMTGTSGLFYGFQLMTLDQVVAMTQAWRNVAKNLNKRSQQGLSHVTSTGSSSSMERLNGNKFKLPNIPDQKSIPPNAVQPVYAHPAWIPLITDNAGNHIGVDLAPGPNGKYAQIITFGRDFDTKFVIAENWGEFLLSFANDLEAGNWYLVDDNDDYFSGDGELVFRDKKSNGPIQDYFEVLKRRTWIKYQENLRSQQQKSQPDTSLQEQKYVPASQKKVAAEQPSTLNAESIKGEDSGSADVQSVQDHESVKIVKTEPSEAETTTVNTESLGQAEHEIKADNVDIKQESERKEDEKQPKVEEKEHVENEHVTESAKKDDDVNKQTEEMNKKEENEIRSDDAKVEEAREEFENIAL
On to B1, for which the Score is 0 in the data set with ABP1, 0 in the data set with BEM1-2 and 1 in the data set with BEM1-1.

B2: YNL243W (protein, UniProt P33338 1-968, looked up)
Protein SLA2: MSRIDSDLQKALKKACSVEETAPKRKHVRACIVYTWDHQSSKAVFTTLKTLPLANDEVQLFKMLIVLHKIIQEGHPSALAEAIRDRDWIRSLGRVHSGGSSYSKLIREYVRYLVLKLDFHAHHRGFNNGTFEYEEYVSLVSVSDPDEGYETILDLMSLQDSLDEFSQIIFASIQSERRNTECKISALIPLIAESYGIYKFITSMLRAMHRQLNDAEGDAALQPLKERYELQHARLFEFYADCSSVKYLTTLVTIPKLPVDAPDVFLINDVDESKEIKFKKREPSVTPARTPARTPTPTPPVVAEPAISPRPVSQRTTSTPTGYLQTMPTGATTGMMIPTATGAANAIFPQATAQMQPDFWANQQAQFANEQNRLEQERVQQLQQQQAQQELFQQQLQKAQQDMMNMQLQQQNQHQNDLIALTNQYEKDQALLQQYDQRVQQLESEITTMDSTASKQLANKDEQLTALQDQLDVWERKYESLAKLYSQLRQEHLNLLPRFKKLQLKVNSAQESIQKKEQLEHKLKQKDLQMAELVKDRDRARLELERSINNAEADSAAATAAAETMTQDKMNPILDAILESGINTIQESVYNLDSPLSWSGPLTPPTFLLSLLESTSENATEFATSFNNLIVDGLAHGDQTEVIHCVSDFSTSMATLVTNSKAYAVTTLPQEQSDQILTLVKRCAREAQYFFEDLMSENLNQVGDEEKTDIVINANVDMQEKLQELSLAIEPLLNIQSVKSNKETNPHSELVATADKIVKSSEHLRVDVPKPLLSLALMIIDAVVALVKAAIQCQNEIATTTSIPLNQFYLKNSRWTEGLISAAKAVAGATNVLITTASKLITSEDNENTSPEQFIVASKEVAASTIQLVAASRVKTSIHSKAQDKLEHCSKDVTDACRSLGNHVMGMIEDDHSTSQQQQPLDFTSEHTLKTAEMEQQVEILKLEQSLSNARKRLGEIRRHAYYNQDDD
B2: the Score in the data set with ABP1 stood at 0; in the data set on BEM1-2, 1; in the data set on BEM1-1, 1.

B3: YPR055W (protein, UniProt P32855 1-1065, looked up)
Exocyst complex component SEC8: MDYLKPAQKGRRRGLSINSLSETQQSAMNSSLDHLQNDLNRINLQWNRILSDNTNPLELALAFLDDTSVGLGHRYEEFNQLKSQIGSHLQDVVNEHSQVFNTNVASYGKAVSSIMQAQEQTLNLKNCLKEANEKITTDKGSLQELNDNNLKYTKMIDVLVNIEELLQIPEKIEENIRKENFHQVQILLERGFILMNNKSLKTVEILKPINQQLELQEHLLFNNLIEEIHDIMYSKSNKTNFTRVTNNDIFKIISISHNGFTSLENYLYNIVNIDIMEHSKTINKNLEQFIHDQSLNKGNIMLQENAATQAPLAPSRNQENEGFNRIGFLLKTINNINKLPVAFNIITERAKEEIHNIIVKSTESIRSKHPSLLKMATSLKNDNHFGLPVQDILSIILRECFWEIFLKLLYAIQCHRAIFEMSNILQPTSSAKPAFKFNKIWGKLLDEIELLLVRYINDPELISSNNGSIKPINGATNNAPTLPKRKNPKIFSLEYNIEDNSSVKDQAFELKALLKDIFPGFSVSSNMDLDSIYVKDESFEQDEPLVPPSVFNMKVILDPFLLFTQSTSTIVPSVLTQNTISSLTFFDDYMNKSFLPKIQMTMDYLFTVEVESNNPYALELSDENHNIFKTALDFQRLFYNLLNVFNTANTFREKISYCILDLLNHFYNYYLGLFNSLIGTSDRHLTRKIITAWLQNGILMDQEQKILNGDETLFHEESIELFKEIPHFYQAGKGLSKSDLFNNLTLDTILQFSASVLWILNWLPGLKKAINIDEVSQEPMLDADRLRSSWTFSESMDLNYSNPSSSPNSLGNLKILLDDKASKKFDETIDGFKTLKFKLITILRFNIRALCIYDIGSFFQNTKIWNMDVGSIELDQNIASLISELRRTESKLKQQLPEKEKNSIFIGLDIVNNYALIKGAKSIKVLNHNGIKKMLRNVNVLQHAYRNLSSEPSKINMNVTMNFYSLCGSSEAELFEYIKDNELPHCSVEDLKTILRLQFSEEMHRQLKRQSTSSTKGSIKPSNKRYTEALEKLSNLEKEQSKEGARTKIGKLKSKLNAVHTANEK
Take B3: the Score in the data set on ABP1, in the data set on BEM1-2 and in the data set with BEM1-1 was 1 in each case.

B4: YHR064C (protein, UniProt P38788 1-538, looked up)
Ribosome-associated complex …: MSSPVIGITFGNTSSSIAYINPKNDVDVIANPDGERAIPSALSYVGEDEYHGGQALQQLIRNPKNTIINFRDFIGLPFDKCDVSKCANGAPAVEVDGKVGFVISRGEGKEEKLTVDEVVSRHLNRLKLAAEDYIGSAVKEAVLTVPTNFSEEQKTALKASAAKIGLQIVQFINEPSAALLAHAEQFPFEKDVNVVVADFGGIRSDAAVIAVRNGIFTILATAHDLSLGGDNLDTELVEYFASEFQKKYQANPRKNARSLAKLKANSSITKKTLSNATSATISIDSLADGFDYHASINRMRYELVANKVFAQFSSFVDSVIAKAELDPLDIDAVLLTGGVSFTPKLTTNLEYTLPESVEILGPQNKNASNNPNELAASGAALQARLISDYDADELAEALQPVIVNTPHLKKPIGLIGAKGEFHPVLLAETSFPVQKKLTLKQAKGDFLIGVYEGDHHIEEKTLEPIPKEENAEEDDESEWSDDEPEVVREKLYTLGTKLMELGIKNANGVEIIFNINKDGALRVTARDLKTGNAVKGEL
For B4, the Score with ABP1 is 0; in the data set on BEM1-2 it was 0; in the data set on BEM1-1, 1.

B5: YER008C (protein, UniProt P33332 1-1336, looked up)
Exocyst complex component SEC3: MRSSKSPFKRKSHSRETSHDENTSFFHKRTISGSSAHHSRNVSQGAVPSSAPPVSGGNYSHKRNVSRASNSSQTSNFLAEQYERDRKAIINCCFSRPDHKTGEPPNNYITHVRIIEDSKFPSSRPPPDSKLENKKKRLLILSAKPNNAKLIQIHKARENSDGSFQIGRTWQLTELVRVEKDLEISEGFILTMSKKYYWETNSAKERTVFIKSLITLYIQTFEGHVPELVNWDLSLFYLDERSYQRAVITNRPGSVSPIKSPTSNFTTNTTQSVGSVPFSAPTERTRRSETESVNPVSTPASVEYHAGMKSLNKAPYSSNSTLNEVNKRYELEQQQQQEEAELRRLEEQKRLQLQKENEMKRLEEERRIKQEERKRQMELEHQRQLEEEERKRQMELEAKKQMELKRQRQFEEEQRLKKERELLEIQRKQREQETAERLKKEEQEALAKKEEEEKSKRNKVDNESYTQEINGKVDNLLEDLNAVLAEETETTPTMQNGTYVPERSTARAHDQLKKPLNIAKVESLGGSDLNDSISLSDEIAGLNTSNLSGEDQDEKNDLSFEKGDEVRYSNNFEGEAPHVYHEVSIIQEEAPAVSQKLILPEENNESEALIESKEEIKTMENIDDEVLLEILTDINWSIEDDADSMIERIDLRLAETEYLFNQNLLSLQKIGPNIRPYEDKVNDECHRIIPTLSLFLMEMSNFSNDIENVESQDNGLQVESANKKLLWNTLDELLKTVSLDEISLNQLLECPIREKNLPWMENQLNLLLKAFQAIGSDGNEVEYNLREISGLKQRLQFYEKVTKIFLNRIVEEMQKKFSNIRGQDISHDQMIRILTTLLIFSPLILFCKEISQKSYQAIVENWNVSIQPVYMELWTKKISQLQGIDTNDEKMNELSLSQLLNEWDTFRKERKTNDINPVFKNSFSLLTECLQTMRQECIVYQNFVEVFFHISSKHNFEEYIKHFNDPDAPPILLDTVKVMQSDREAAVIETQLVSRIFQPIVTRLSSYFVELVKAEPTVAPALTFYLENEIKSLESSNHEFLLSAVTRMYTQIKQVWSDNVEEQVLHFERISNATTNGEILPGILDLPVGLKNSEDLFQFAKRSMDIKDTDEGYESIELMNSSFRKLSIAATRSITHKEVNSSINPNLSDTAALNNDYMETISLLVNSNWLTEMLSMLNFNKDGIFDTSLQNVKKVFDVEKESYASFLLRDTMPKLTAFVYGVSNIIENTNNVNMTNPSRWAAYSRQNLENILLAYTSHEIETLVKRLHTHMVNDFGYHQENAINNVLCDKLWSCIQGQTVSLYLKLYTVIDKHYRGTNIRFTKNDIISAFEEYKNA
With B5, the Score is on record as 2 in the data set with ABP1, 1 in the data set on BEM1-2 and 1 with BEM1-1.
